Experimental data taken from article PMC6123721, “Transient antibody-antigen interactions mediate the strain-specific recognition of a conserved malaria epitope” (Communications Biology, 2018).

Target: T1, MSP2 14-22 peptide (minimal 6D8 epitope of merozoite surface protein 2) (Plasmodium falciparum, conserved region …, UniProt P19599)
T1 chain: NAYNMSIRR
Test: NMR chemical shift perturbation
Settings: both partners purified

B1: 6D8 single-chain Fv (scFv) (scFv, V domains shown)
VH: QVQLQQSGDELVKPGASVKLSCTVSGFNIKDDFIHWMKQRPEQGLEWIGRIDPANGYTKYAPKFQDKATMTADTSSNTAYLQLSSLASEDAAVYYCATYGVAYWGQGTLVTVSA
VL: DIVLTQSPASLAVSLGQRATISCKASQSVDHDGDSYMNWFQQKPGQSPKLLIYAASNLESGIPARFSGSGSGTDFTLNIHPVEEEDAATYYCQQTNEDPYTFGGGTKLEIK
notes: not shown: His-tag, C-terminal, kept
binding result: binds
